Reference: paper PMC11661604

Biological target: native Semliki Forest virus (SFV) virion
Experiment: SPR
Conditions: SFV immobilized to 2,500 RU on a CM5 chip by amine coupling; analyte 250-8000 nM; parent: 15.02 ± 3.49

## LA5-Fc (from UniProt P98155-1) S204A
  Kd: 15.9 µM
